According to PMC5884726 (Structure (London, England : 1993), 2018):

B1: UreA (natural protein, Klebsiella aerogenes, UniProt P18316 1-100, looked up)
chain: MELTPREKDKLLLFTAALVAERRLARGLKLNYPESVALISAFIMEGARDGKSVASLMEEGRHVLTREQVMEGVPEMIPDIQVEATFPDGSKLVTVHNPII
B2: UreB (natural protein, Klebsiella aerogenes, UniProt P18315 1-106, looked up)
chain: MIPGEYHVKPGQIALNTGRATCRVVVENHGDRPIQVGSHYHFAEVNPALKFDRQQAAGYRLNIPAGTAVRFEPGQKREVELVAFAGHRAVFGFRGEVMGPLEVNDE
B3: MBP-UreDFG (maltose binding protein-UreD fusion with UreF and UreG) (complex)
chain 1: MLPPLKKGWQATLDLRFHQAGGKTVLASAQHVGPLTVQRPFYPEEETCHLYLLHPPGGIVGGDELTISAHLAPGCHTLITMPGASKFYRSSGAQALVRQQLTLAPQATLEWLPQDAIFFPGANARLFTTFHLCASSRLLAWDLLCLGRPVIGETFSHGTLSNRLEVWVDNEPLLVERLHLQEGELSSIAERPWVGTLLCYPATDALLDGVRDALAPLGLYAGASLTDRLLTVRFLSDDNLICQRVMRDVWQFLRPHLTGKSPVLPRIWLT
chain 2: MSTAEQRLRLMQLASSNLPVGGYSWSQGLEWAVEAGWVLDVAAFERWQRRQMTEGFFTVDLPLFARLYRACEQGDIAAAQRWTAYLLACRETRELREEERNRGAAFARLLSDWQPDCPPPWRSLCQQSQLAGMAWLGVRWRIALPEMALSLGYSWIESAVMAGVKLVPFGQQAAQQLILRLCDHYAAEMPRALAAPDGDIGSATPLAAIASARHETQYSRLFRS
chain 3: not shown

What was measured:
Assay in all cases: native MS
UreC = UreC (Klebsiella aerogenes)
native MS = biological target: the molecule itself
[1] = biological target: (UreABC)3 urease apoprotein (Klebsiella aerogenes)

Row | Binder | binding result (UreC) | stoichiometry N (native MS) | stoichiometry N [1]
1 | B1 | binds | – | –
2 | B2 | binds | – | –
3 | B3 | – | 2 | 3 MBP-UreDFG per (UreABC)3
